US20230348569A1 (published 2023)

Key:
[1] = molecular target: SARS-CoV-2 spike protein (S-wt, Wuhan-Hu-1, NCBI Accession Number MN908947.3) on VSV-SARS-CoV-2-S … (SARS-CoV-2, UniProt P0DTC2 14-1273); test: cell-based or functional assay
[2] = molecular target: T1, SARS-CoV-2 Spike Protein (RBD)(R319-F541).mFc (SARS-CoV-2); test: Luminex bead assay, supernatant
[3] = molecular target: T1, SARS-CoV-2 Spike Protein …; test: Luminex bead assay, supernatant; remark: listed apart in the source
[4] = molecular target: T2, SARS-CoV-2 Spike Protein (RBD)(R319-F541).hFc (SARS-CoV-2); test: Luminex bead assay, supernatant
[5] = molecular target: T2, SARS-CoV-2 Spike Protein …; test: Luminex bead assay, supernatant; remark: listed apart in the source
[6] = molecular target: SARS-CoV-2 RBD extracellular domain expressed with a C-terminal myc-myc-hexahistidine tag (SARS-CoV-2); test: SPR
[7] = molecular target: SARS-COV-2 RBD extracellular domain expressed with a C-terminal mouse IgG2a (SARS-COV-2 RBD-mFc) (SARS-CoV-2); test: SPR

| Binder | Binding signal (MFI) [2] | Binding signal (MFI) [3] | Binding signal (MFI) [4] | other results |
| --- | --- | --- | --- | --- |
| mAb10966 (antibody, V domains shown) VH: EVQLVESGGGLVQPGGSLRLSCAASGLTVSSNYMSWVRQAPGKGLEWVSVIYSGGSTFYADSVKGRFTISRDNSKNTLYLQMNSLRPEDTAVYYCAREGRIAATGYGMDVWGQGTTVTVSS VL: DIQMTQSPSSLSASVGDRVTITCQASQDISNYLNWYQQKPGKAPKLLIYDASNLGTGVPSRFSGSRSGTDFTFTISSLQPEDIATYYCHQYDNLPQTFGPGTKVDIKR | – | – | – | neutralization potency IC50 [1]: 0.1 nM |
| mAb11004 (antibody, V domains shown) VH: QVQLVESGGGVVQPGRSLRLSCVASGFTFSIYGMDWVRQAPGKGLEWVAVISYDGSNKYYADSVKGRFTISRDNSKNTLYLQMNSLRPEDTAVYYCAKDREAAADAFDIWGQGTMVTVSS VL: DIQMTQSPSSVSASVGDRVTITCRASQGISSWLAWYQQKPGKAPKLLIYAASSLHSGVPSRFSGSGSGTDFTLTISSLQPEDFATYYCQQANSFRLTFGGGTKVEIKR [mAb11004, listing 1 of 2 here] | 4580 MFI | 4300 MFI | 4880 MFI | – |
| mAb11006 (antibody, V domains shown) VH: EVQLVESGGGLVQPGGSLRLSCAASGFIVSRNYMSWVRQAPGKGLEWVSVIYSGGSTFYADSVKGRFTISRHNSKNTLYLQMNSLKAEDTAVYYCARELRGYFDYWGQGTLVTVSS VL: DIQLTQSPSFLSASVGDRVTITCWASQGISSYLAWYQQKPGKAPKLLIYAASTLQSGVPSRFSGSGSGTEFTLTISSLQPEDFATYYCQLLNSYPYTFGQGTKLEIKR | 2870 MFI | 1400 MFI | 3980 MFI | Binding signal (MFI) [5]: 3810 MFI |
| mAb11008 (antibody, V domains shown) VH: EVQLVESGGGLVQPGGSLRLSCAASGFTVSSNYMTWVRQAPGKGLEWVSVIYSGGSTFYADSVKGRFTISRHNSENTLYLQMNSLRAEDTAVYYCARDLAAAGTDYWGQGALVTVSS VL: DIQLTQSPSFLSASVGDRVTITCWASQGISSYLAWYQQKPGKAPKLLIYAASTLQSGVPSRFSGSGSGTEFTLTISSLQPDDFATYYCQHLNSYLYTFGQGTKLEIKR [mAb11008, listing 1 of 2 here] | 4260 MFI | 3050 MFI | 2570 MFI | – |
| mAb10998 (antibody, V domains shown) VH: EVQLVESGGGLVHPGGSLRLSCAASGLTVSSNYMSWVRQAPGKGLEWVSVIYSGGSTYYADSVKGRFTISRHNSKNTLFLQMNSLRAEDTAVYYCARDRPITGTTLDVWGQGTTVTVSS VL: DIQMTQSPSSLFASVGDRVTITCRASQSISSYLNWYQQKPGKAPKLLIYAASSLQSGVPSRFSGSGSGTDFTLTISSLQPEDFAFYYCQQTYSTPPITFGQGTRLEIKR | 2230 MFI | 2230 MFI | 1740 MFI | – |
| mAb10985 (antibody, V domains shown) VH: EVQLVESGGGLVQPGRSLRLSCAASGFTFDDYAMHWVRQAPGKGLEWVSGISWNRGSIGYADSVKGRFTISRDNAKNSLYLQMSSLRAEDTALYYCAKDGERWDSVVVPSARNGMDVWGQGTTVTVSS VL: QSVLTQPPSVSGAPGQRVTISCTGSSSNIGAGYDVHWYQQLPGTAPKLLIYGNSNRPSGVPDRFSGSKSGTSASLAITGLQAEDEADYYCQSYDSSLSGSYVFGTGTKVTVLG | – | – | – | t½ [6]: 8 min |
| mAb11004 (antibody, V domains shown) VH: QVQLVESGGGVVQPGRSLRLSCVASGFTFSIYGMDWVRQAPGKGLEWVAVISYDGSNKYYADSVKGRFTISRDNSKNTLYLQMNSLRPEDTAVYYCAKDREAAADAFDIWGQGTMVTVSS VL: DIQMTQSPSSVSASVGDRVTITCRASQGISSWLAWYQQKPGKAPKLLIYAASSLHSGVPSRFSGSGSGTDFTLTISSLQPEDFATYYCQQANSFRLTFGGGTKVEIKR [mAb11004, listing 2 of 2 here] | – | – | – | t½ [7]: 3.01 h |
| mAb11008 (antibody, V domains shown) VH: EVQLVESGGGLVQPGGSLRLSCAASGFTVSSNYMTWVRQAPGKGLEWVSVIYSGGSTFYADSVKGRFTISRHNSENTLYLQMNSLRAEDTAVYYCARDLAAAGTDYWGQGALVTVSS VL: DIQLTQSPSFLSASVGDRVTITCWASQGISSYLAWYQQKPGKAPKLLIYAASTLQSGVPSRFSGSGSGTEFTLTISSLQPDDFATYYCQHLNSYLYTFGQGTKLEIKR [mAb11008, listing 2 of 2 here] | – | – | – | t½ [7]: 1 h |

Like-named read-outs stand apart in the source and are kept apart here.
